The source of these data is patent publication US5688511.

Amino acid sequences for entries named in this document (tags omitted).
UniProt Q13148, whole entry: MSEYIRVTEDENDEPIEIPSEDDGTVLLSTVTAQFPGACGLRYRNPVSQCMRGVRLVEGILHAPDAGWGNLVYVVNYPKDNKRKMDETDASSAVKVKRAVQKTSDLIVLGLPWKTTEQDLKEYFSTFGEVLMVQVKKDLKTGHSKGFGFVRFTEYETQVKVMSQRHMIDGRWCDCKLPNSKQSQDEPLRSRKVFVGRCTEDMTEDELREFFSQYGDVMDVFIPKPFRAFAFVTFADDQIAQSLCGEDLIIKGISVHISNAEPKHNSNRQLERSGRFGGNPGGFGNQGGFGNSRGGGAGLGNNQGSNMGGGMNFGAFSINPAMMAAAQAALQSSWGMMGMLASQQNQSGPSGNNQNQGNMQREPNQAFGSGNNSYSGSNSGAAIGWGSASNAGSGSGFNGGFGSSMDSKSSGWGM

The data set deals with endogenous TDP-43 (HeLa nuclear extract, phosphocellulose fraction A) (Homo sapiens) (UniProt Q13148). Description: EMSA. The note with it: shift-western with anti-TDP-43; 43 kDa species also in UV crosslinking; protein in an extract; label: 32P. On the technique in general: Mobility shift assays separate free from complexed probe on a gel.

Where cells or extracts were used, other partners may take part.

Turning to “CTGCTTTTTGCCTGTACTGGGTCTCTCTGGTTAGACCAGATCTGAG (double strand) [HIV-1 LTR -18/+28 (TAR DNA) WT]”, the binding result is recorded as “binds”.
